Test results taken from patent publication US20230241205A1, “SARS-COV-2 IMMU[…] AND USES THEREOF” (TScan Therapeutics, Inc., priority 2020, published 2023).

How the values were obtained:
[1] = test system: memory CD8+ T cells of convalescent COVID-19 patients; target cells expressing only HLA-A*01:01; format: cell-based, human
[2] = test system: memory CD8+ T cells of convalescent COVID-19 patients; target cells expressing only HLA-A*11:01; format: cell-based, human

Sequence | # of patients enriching epitope >1.5 (moderate stringency) [1] | # of patients enriching epitope >5 (high stringency) [1] | epitope enrichment, patient A01-01-01-030 [1] | epitope enrichment, patient A01-01-02-019 [1] | epitope enrichment, patient A0101_01-01-003 [1] | epitope enrichment, patient A0101_01-01-007 [1] | epitope enrichment, patient A0101_01-01-009 [1] | # of patients enriching epitope >1.5 (moderate stringency) [2] | # of patients enriching epitope >5 (high stringency) [2] | epitope enrichment, patient A11-01-01-039 [2] | epitope enrichment, patient A11-01-02-012 [2] | epitope enrichment, patient A1101_01-01-003 [2] | epitope enrichment, patient A1101_01-02-007 [2] | epitope enrichment, patient A1101_01-02-008 [2]
TACTDDNALAYY | 5 | 1 | 6.71 | 4.08 | 4.00 | 1.55 | 3.23 | – | – | – | – | – | – | –
KAYNVTQAFGR | – | – | – | – | – | – | – | 3 | 0 | 0.98 | 0.38 | 1.71 | 4.44 | 2.20
ACTDDNALAY | 5 | 1 | 6.71 | 4.08 | 4.00 | 1.55 | 3.23 | – | – | – | – | – | – | –
ACTDDNALAYY | 5 | 1 | 6.71 | 4.08 | 4.00 | 1.55 | 3.23 | – | – | – | – | – | – | –
